{"source": "paper PMC4598760", "about": "(Biomolecules, 2015)", "test_system": "influenza virus A/Mem71 (H3N1)"}
{"substance": "Neu5Gcα2-6Galβ1-4Glcβ-Biotin [OS-20]", "values": [{"measurement": "virus binding to surface-bound glycan (in words)", "value": "does not bind"}]}
